Measured values from several laboratories, pooled; numbers as filed in NIAID ChemDB.

Shared fields: growth or infection tests; species: HIV-1; endpoint: EC50

Conditions beyond the fields shown may differ between rows. ECn: concentration that inhibits the pathogen or its effect by n%. a–b is a range or a potency band.

Cc1ncc(-c2cnc(OCC3CCCC3)c(F)c2)c(N2CCC(C)(C)CC2)c1[C@H](OC(C)(C)C)C(=O)O ; read by: luminescence ; cell line: MT-2 ; strain: NL4-3 ; value: 0.005 µM
Cc1cc2[nH]cnc2cc1NC(=O)COc1ccc(Cl)cc1C(=O)c1cc(F)cc(C(F)(F)F)c1 ; read by: β-galactosidase ; cell line: HeLa + HELA CD4+ ; strain: HXB2 ; mutations: RT-K103N ; value: <0.01 µM
Cc1ncc(-c2ccc(OCCn3ccnc3)cn2)c(N2CCC(C)(C)CC2)c1[C@H](OC(C)(C)C)C(=O)O ; read by: luminescence ; cell line: MT-2 ; strain: NL4-3 ; value: 0.134 µM
N#CC1=CC2Nc3ccccc3C2N(c2ccc([N+](=O)[O-])cc2)C1=O ; read by: GFP / fluorescence ; cell line: HeLa ; strain: 83-2/B1-T20r ; mutations: Q40K ; value: 0.1 µM
CCc1cc(C#N)cc(C(=O)c2cc(Cl)ccc2OCC(=O)Nc2ccc(S(N)(=O)=O)cc2C)c1 ; read by: β-galactosidase ; cell line: HeLa + HELA CD4+ ; strain: HXB2 ; mutations: RT-P225H ; value: <0.01 µM
CC(C)C1=C2[C@H]3CC[C@@H]4[C@@]5(C)CC[C@H](OC(=O)[C@H]6C[C@@H](C(=O)O)C6(C)C)C(C)(C)[C@@H]5CC[C@@]4(C)[C@]3(C)CC[C@@]2([C@@H](O)CNCC(CCN)NC(=O)c2ccc(Cl)cc2)CC1=O ; read by: p24 / ELISA ; cell line: MT-2 ; strain: 92HT599 ; value: <1 µM
Cc1ncc(-c2ccc(N(C)CCOc3ccc(F)cc3)nc2)c(N2CCC(C)(C)CC2)c1[C@H](OC(C)(C)C)C(=O)O ; read by: luminescence ; cell line: MT-2 ; strain: NL4-3 ; value: 0.004 µM
Cc1cc(S(N)(=O)=O)ccc1NC(=O)COc1ccc(Cl)cc1C(=O)c1cc(Cl)cc(Cl)c1 ; read by: cytopathic effect / propidium iodide ; cell line: MT-4 ; strain: Nevirapine-resistant (RT Y181C) ; mutations: RT-Y181C ; value: <0.01 µM
Cc1ncc(-c2ccc(OC[C@@](C)(O)c3ccccc3)cn2)c(N2CCC(C)(C)CC2)c1[C@H](OC(C)(C)C)C(=O)O ; read by: luminescence ; cell line: MT-2 ; strain: NL4-3 ; value: 0.0071 µM
Cc1cc(S(N)(=O)=O)ccc1NC(=O)COc1ccc(Cl)cc1C(=O)c1cc(F)cc(F)c1 ; read by: β-galactosidase ; cell line: HeLa + HELA CD4+ ; strain: HXB2 ; mutations: RT-P236L ; value: 0.011–0.1 µM
CC(C)C1=C2[C@H]3CC[C@@H]4[C@@]5(C)CC[C@H](OC(=O)[C@H]6C[C@@H](C(=O)O)C6(C)C)C(C)(C)[C@@H]5CC[C@@]4(C)[C@]3(C)CC[C@@]2(CCNCc2ccc(Cl)cc2OC2CCNCC2)CC1=O ; read by: p24 / ELISA ; cell line: MT-2 ; strain: 92HT599 ; value: <1 µM
Cc1ncc(-c2ccc(NCCOc3ccc(F)cc3F)cn2)c(N2CCC(C)(C)CC2)c1[C@H](OC(C)(C)C)C(=O)O ; read by: luminescence ; cell line: MT-2 ; strain: NL4-3 ; value: 0.0016 µM
CC(C)C1=C2[C@H]3CC[C@@H]4[C@@]5(C)CC[C@H](OC(=O)[C@H]6C[C@@H](C(=O)O)C6(C)C)C(C)(C)[C@@H]5CC[C@@]4(C)[C@]3(C)CC[C@@]2(CC(=O)NCC(C)(C)NC(=O)C2CCNCC2)CC1=O ; read by: p24 / ELISA ; cell line: MT-2 ; strain: 92HT599 ; value: <1 µM
Cc1cc(OCCCS(N)(=O)=O)ccc1NC(=O)COc1ccc(Cl)cc1C(=O)c1cc(F)cc(C(F)(F)F)c1 ; read by: β-galactosidase ; cell line: HeLa + HELA CD4+ ; strain: HXB2 ; mutations: RT-K103N ; value: <0.01 µM
CC(=O)c1c(C)nc(-c2ccccc2)nc1NC(=O)c1ccccc1 ; read by: GFP / fluorescence ; cell line: HeLa ; strain: G-3 ; value: 0.02 µM
Cc1cc(S(N)(=O)=O)ccc1NC(=O)COc1ccc(Cl)cc1C(=O)c1cc(F)cc(C(F)(F)F)c1 ; read by: β-galactosidase ; cell line: HeLa + HELA CD4+ ; strain: HXB2 (RT-K103N Y181C) Recombinant ; mutations: RT-K103N Y181C ; value: <0.01 µM
CC(C)C1=C2[C@H]3CC[C@@H]4[C@@]5(C)CC[C@H](OC(=O)[C@H]6C[C@@H](C(=O)O)C6(C)C)C(C)(C)[C@@H]5CC[C@@]4(C)[C@]3(C)CC[C@@]2(CC(=O)NCC(C)(CN)NC(=O)c2ccc(Cl)cc2)CC1=O ; read by: p24 / ELISA ; cell line: MT-2 ; strain: 92HT599 ; value: <1 µM
Cc1ncc(-c2cnc(OCC3CCCCC3)c(F)c2)c(N2CCC(C)(C)CC2)c1[C@H](OC(C)(C)C)C(=O)O ; read by: luminescence ; cell line: MT-2 ; strain: NL4-3 ; value: 0.0061 µM
CC(C)C1=C2[C@H]3CC[C@@H]4[C@@]5(C)CC[C@H](OC(=O)[C@H]6C[C@@H](C(=O)O)C6(C)C)C(C)(C)[C@@H]5CC[C@@]4(C)[C@]3(C)CC[C@@]2([C@@H](O)CNCC(C)(C)NC(=O)c2ccc(Cl)cc2OCCN2CCCC2)CC1=O ; read by: p24 / ELISA ; cell line: MT-2 ; strain: 92HT599 ; value: <1 µM
CCC1CC(Oc2ccc(-c3cnc(C)c([C@H](OC(C)(C)C)C(=O)O)c3N3CCC(C)(C)CC3)nc2)C1 ; read by: luminescence ; cell line: MT-2 ; strain: NL4-3 ; value: 0.01 µM
CC(C)C1=C2[C@H]3CC[C@@H]4[C@@]5(C)CC[C@H](OC(=O)[C@H]6C[C@@H](C(=O)O)C6(C)C)C(C)(C)[C@@H]5CC[C@@]4(C)[C@]3(C)CC[C@@]2([C@@H](O)CNC[C@H](C)NC(=O)c2ccc(Cl)cc2)CC1=O ; read by: p24 / ELISA ; cell line: MT-2 ; strain: 92HT599 ; value: <1 µM
O=C(COc1ccc(Cl)cc1C(=O)c1ccccc1)Nc1ccc2cn[nH]c2c1 ; read by: cytopathic effect / propidium iodide ; cell line: MT-4 ; strain: IIIB ; value: <0.01 µM